What was measured:
[1] = biological target: p66 bait and p51 prey fusions with the W401A change (Human immunodeficiency virus type 1 group M subtype B, UniProt P12497, W988A); conditions: compared to no drug
Method: CTY10-5d transformed constructs expressing p66 bait and p51 prey fusions were grown overnight to stationary phase in synthetic complete medium without histidine and leucine and containing 2% glucose (SC-His-Leu). […] Yeast were grown with aeration at 30° C. to OD600=0.5. The equivalent of 1 OD600 unit was pelleted for each treatment and subjected to a quantitative b-gal liquid assay.
Hemagglutinin (HA) antibodies were used to immunoprecipitate the p51 prey and the presence of any bound p66 bait was then detected using anti-p66 specific antibodies. For coimmunoprecipitation of the p66 bait fusions, samples were divided into two with one part processed without added NNRTI while the other was maintained in drug at the same concentration used during growth of yeast.

[2] = biological target: T1, lexA87-66W401A and Gal4AD-HA-51W401A (Human immunodeficiency virus type 1 group M subtype B, UniProt P12497, W988A); format: cell-based, HIV-1
T1 construct: Yeast expressing both p66 bait and p51 prey fusions containing the W401A mutation; expressed in transfected cells; host or cells: Saccharomyces cerevisiae CTY10-5d
Description: […]; Preparation of protein extracts and immunoprecipitation were as previously described (30) except for the use of anti-HA.11 monoclonal antibodies (clone 16B12; Covance, Princeton, N.J.) and Protein G-PLUS agarose beads (Santa Cruz Biotechnology; Santa Cruz, Calif.). Samples were resolved by SDS-PAGE. The leXA87-66 fusion protein was probed using monoclonal antibodies 7E5 which specifically detects p66 (31).
[…]. […] […].

Structure (SMILES): O=C1Nc2ccc(Cl)cc2[C@@](C#CC2CC2)(C(F)(F)F)O1 [efavirenz]
- b-gal activity, W401A change in one or both subunits [1]: dramatic increase in b-gal activity
- heterodimer in lysates of yeast grown without drug, drug added during coimmunoprecipitation, W401A ([2]; 1.6 μM efavirenz added during the procedure): significantly more heterodimer present
- amount of p66 bait coimmunoprecipitated with p51 prey (heterodimer formation), W401A ([2]; yeast grown in efavirenz (1.6 μM) or UC781 (16 μM), compared to no drug): clear increase

Source: patent US6812025B2, “Two hybrid assay that detects HIV-1 reverse transcriptase dimerization” (priority 2000, dated 2004)
